According to article PMC10213629:

Test system: CrcA (PA1677) + Hfq
Experiment: grating-coupled interferometry
Conditions: preformed Hfq/amiE6ARN (1:1) complex as analyte on immobilized CrcA, no binding of the complex to CrcA; GCI (Creoptix WAVEdelta, 4PCP chip): 10 mM Tris/HCl pH 8, 10 mM KCl, 40 mM NaCl, 1 mM MgCl2, 25 C; recombinant protein; protein details: His-tag removed by 3C cleavage

Q: Does AAAAAUAACAACAAGAGG [amiE6ARN] bind?
A: no binding

Construct, isoform or probe ends are uncertain for at least one entry. A negative result means that nothing was seen under these conditions.
